A mixed list of measured activities; the numbers were collected in NIAID ChemDB.

Common to all: growth or infection tests; organism: Mycobacterium smegmatis

ECn: concentration that inhibits the pathogen or its effect by n%.

compound	changes	strain or isolate	read by	read-out	result
Cc1ccc(-c2nc(C)c(-c3cn4cc(Br)ccc4n3)s2)cc1		mc2155	broth dilution / absorbance	MIC	>50 µg/mL
CO[C@H]1/C=C/O[C@@]2(C)Oc3c(C)c(O)c4c(O)c(c5c(c4c3C2=O)NC2(CC3CCC(C2)N3C)N=5)=NC(=O)/C(C)=C\C=C\[C@H](C)[C@H](O)[C@@H](C)[C@@H](O)[C@@H](C)[C@H](OC(C)=O)[C@@H]1C			luminescence	MIC90	300 µg/mL
CCCCCCCCCCCC1OC(c2ccncc2)=NN1C(C)=O			agar	MIC	6 µg/mL
O=C(O)C(=O)O.c1ccc(Oc2cccc(CN3CCN(Cc4ccco4)CC3)c2)cc1				EC50	23.7 µM
CCCCCCc1[nH]c2ccccc2c1C1=C(Br)C(=O)N(C)C1=O		SG987		MIC	3.12 µg/mL
Cc1c(C)c(C)[c-](C)c1C.N[C@H](C(=O)[O-])c1ccccc1.[Cl][Rh+2]		VT 307		MIC	7 µg/mL
CN(C)C(=O)CC(CSc1ccccc1)Nc1c(C(=O)N/N=C/c2cc(F)ccc2O)cnc2cccc(C(F)(F)F)c12		ATCC 19420	resazurin	MIC	>100 µg/mL
C=C1C(=O)[C@@]23C(=O)O[C@H]4CCC(C)(C)[C@H]5C(=O)OC[C@@]45[C@@H]2CC[C@@H]1[C@H]3OC(=O)c1ccccc1		ATCC 19420	resazurin	MIC	8 µg/mL
CO[C@H]1/C=C/O[C@@]2(C)Oc3c(C)c(O)c4c(O)c(c5c(c4c3C2=O)NC2(N=5)C3CC4C[C@H]2CN(C4)C3)=NC(=O)/C(C)=C\C=C\[C@H](C)[C@H](O)[C@@H](C)[C@@H](O)[C@@H](C)[C@H](OC(C)=O)[C@@H]1C			luminescence	MIC90	650 µg/mL
O=C1CC(c2ccccc2F)Nc2ccccc21		ATCC 607		MIC	125 µg/mL
Cc1nc(-c2ccc(F)cc2)sc1-c1cn2ccccc2n1		mc2155	broth dilution / absorbance	MIC	27.9 µg/mL
COc1c(N2CCN(C)C(c3ccccc3)C2)c(F)cc2c(=O)c(C(=O)O)cn(C3CC3)c12		ATCC 14468	agar	MIC	27.69 µM
CCCCCCCCCCCCCCCOc1cc(-c2ccccc2F)nc2ccccc12		ATCC 607		MIC	250 µg/mL
O=C(Nc1ccc(S(=O)(=O)NC2=NCCC2)cc1)c1cc(-c2ccco2)nc2ccccc12			turbidity	MIC80	>100 µM
CCCCCCc1[nH]c2ccccc2c1C1=C(Br)C(=O)NC1=O		SG987		MIC	0.14 µg/mL
CCCCCCCCCCCCCCCC(=O)NC1CNC(=O)C(C2CCN=C(N)N2)NC(=O)/C(=C/NC(N)=O)NC(=O)C(CO)NC(=O)C(CO)NC1=O		rabinowitchi 15		MIC	5 µg/mL
CCCCCCCCCCCCCCCCCCNC(=O)NC(CCC(=O)O)(CCC(=O)O)CCC(=O)O		mc155		MIC	3 µg/mL
C=C1C(=O)[C@@]23C(CC[C@@H]1[C@H]2OC(=O)c1ccc(F)cc1)[C@@]12COC3(O)[C@@H](O)[C@@H]1C(C)(C)CC[C@@H]2OC(C)=O		ATCC 19420	resazurin	MIC	4 µg/mL
CCCCc1[nH]c2ccccc2c1C1=C(Br)C(=O)NC1=O		SG987		MIC	2.17 µg/mL
CC[C@H](C)[C@@H](NC(=O)[C@@H](CCC(=O)O)NC(=O)[C@H](Cc1cnc[nH]1)NC(=O)[C@H](CC(C)C)NC(=O)[C@@H](C)N)C(=O)N[C@H]1CCCCNC1=O			resazurin	MIC	>50 µg/mL
CCCCCCCOc1cc(-c2cccc(F)c2)nc2ccccc12		ATCC 607		MIC	62.5 µg/mL
c1ccc(Oc2cccc(CN3CCN(Cc4ccncc4)CC3)c2)cc1				EC50	<100 µM
C[C@@H]1CN(c2c(F)c(N)c3c(=O)c(C(=O)O)cn(C4CC4)c3c2F)C[C@H](C)N1		ATCC 607	broth dilution / visual reading	MIC	0.1 µg/mL
C=C1C(=O)[C@@]23C(=O)O[C@H]4CCC(C)(C)[C@H]5C(=O)OC[C@@]45[C@@H]2CC[C@@H]1[C@H]3OC(=O)c1cnccn1		ATCC 19420	resazurin	MIC	>64 µg/mL
CCC1OC(c2ccncc2)=NN1C(C)=O			agar	MIC	>100 µg/mL
Cc1[nH]c(-c2ccc(-c3ccc(Cl)c(OC(F)(F)F)c3)o2)nc1-c1ccccc1			broth dilution / turbidity	MIC100	20–50 µg/mL
CCCCCCCCCCCCCCCCCCCCCCC(=O)NC(C)(CCC(=O)O)CCC(=O)O		mc155		MIC	36 µg/mL
COc1ccc(-c2cc(C(=O)Nc3ccc(S(=O)(=O)Nc4onc(C)c4C)cc3)c3ccccc3n2)cc1			turbidity	MIC80	>100 µM
FC(F)(F)Oc1ccccc1-c1ccc(-c2nc(-c3ccccc3)c(Cl)[nH]2)o1			broth dilution / turbidity	MIC100	20–50 µg/mL
COc1ccc(-c2c(C3=C(Br)C(=O)NC3=O)c3ccccc3n2C)cc1		SG987		MIC	12.5 µg/mL
[C-]#[N+][C@@]12[C@@](C)(C=C)[C@H](Cl)C[C@@H]3C(C)(C)c4cccc5[nH]c(c(c45)[C@]31O)C(C)(C)[C@]21CO1			resazurin	MIC	23.4 µM
C=C1C(=O)[C@@]23C(=O)O[C@H]4CCC(C)(C)[C@H]5[C@H](O)OC[C@@]45[C@@H]2CC[C@@H]1[C@H]3OC(=O)c1ccccc1		ATCC 19420	resazurin	MIC	4 µg/mL
Cc1ccc(C2=NNC(c3cn(-c4ccc(Cl)cc4)nc3-c3ccccc3)C2)o1			resazurin	MIC	250 µg/mL
CCCCCCCCCCCOc1cc(-c2cccc(F)c2)nc2ccccc12		ATCC 607		MIC	62.5 µg/mL
CCc1[nH]c2ccccc2c1C1=C(Br)C(=O)NC1=O		SG987		MIC	7.95 µg/mL
O=C(Nc1ccc2c(c1)OCO2)c1cc2cccc([N+](=O)[O-])c2[nH]1			PCR	EC50	56.7 µM
CCCN1C2CCC1CC1(C2)N=C2C(=C3NC(=O)/C(C)=C\C=C\[C@H](C)[C@H](O)[C@@H](C)[C@@H](O)[C@@H](C)[C@H](OC(C)=O)[C@H](C)[C@@H](OC)/C=C/O[C@@]4(C)OC5=C(C)C(O)C(C3=O)C2=C5C4=O)N1			luminescence	MIC90	290 µg/mL
O=C1CC(c2ccc(F)cc2)Nc2ccccc21		ATCC 607		MIC	125 µg/mL
CS(=O)(=O)Nc1cccc(C2=NN(c3nc(-c4ccccc4)c4cc(Cl)ccc4n3)C(c3ccco3)C2)c1			turbidity	MIC80	40–80 µM
CCn1cc(C(=O)O)c(=O)c2ccc(C)nc21		mc2155		MIC	256 µg/mL
CC(C)CCOc1ccc(NC(=S)Nc2ccc(OCCC(C)C)cc2)cc1		mc2155		MIC	>200 µg/mL
Cc1ccc(NC(=O)c2cc(-c3ccco3)nc3ccccc23)cc1S(=O)(=O)N1CCOCC1			turbidity	MIC80	>100 µM
Clc1ccc(-n2cc(C3CC(c4ccc(-c5ccccc5)cc4)=NN3)c(-c3cccs3)n2)cc1			resazurin	MIC	7.8 µg/mL
Cc1[nH]c(-c2ccc(-c3ccccc3F)s2)nc1-c1ccccc1			broth dilution / turbidity	MIC100	11–20 µg/mL
CCCCCCOc1cc(-c2ccc(F)cc2)nc2ccccc12		ATCC 607		MIC	125 µg/mL
COc1c(N2CCN(C(c3ccccc3)c3ccc(Cl)cc3)CC2)c(F)c([N+](=O)[O-])c2c(=O)c(C(=O)O)cn(C3CC3)c12		ATCC 14468	agar	MIC	10.29 µM
Clc1ccc(-c2nn(-c3ccc(Cl)cc3)cc2C2CC(c3ccc4c(c3)CCO4)=NN2)cc1			resazurin	MIC	62.5 µg/mL
CC1(C)S[C@@H]2[C@H](NC(=O)[C@H](N)c3ccccc3)C(=O)N2[C@H]1C(=O)O	mspACD knockout	ML16	resazurin	MIC90	>200 µg/mL
COc1c(N2CCN(C(c3ccccc3)c3ccc(Cl)cc3)CC2)c(F)cc2c(=O)c(C(=O)O)cn(C3CC3)c12		ATCC 14468	agar	MIC	44.48 µM
Fc1ccccc1N1CCN(Cc2cccc(Oc3ccccc3)c2)CC1				EC50	>100 µM
Cc1ccc(C2=NNC(c3cn(-c4ccc(Cl)cc4)nc3-c3ccc(Cl)cc3)C2)o1			resazurin	MIC	62.5 µg/mL
CN(C)C(=O)CC(CSc1ccccc1)Nc1c(C(=O)N/N=C/c2ccc(OC(F)(F)F)cc2)cnc2cccc(C(F)(F)F)c12		ATCC 19420	resazurin	MIC	>100 µg/mL
NCCC[C@H](N)CC(=O)N[C@H]1CNC(=O)[C@H]([C@H]2C[C@H](O)NC(N)=N2)NC(=O)/C(=C/NC(N)=O)NC(=O)[C@H](CO)NC(=O)[C@H](CO)NC1=O		rabinowitchi 33		MIC	40 µg/mL
Clc1ccc(-c2nn(-c3ccc(Cl)cc3)cc2C2CC(c3ccc(-c4ccccc4)cc3)=NN2)cc1			resazurin	MIC	15.6 µg/mL
CCCCCCCCCCCCCCCCCCCCCCNC(=O)NC(CCC(=O)O)(CCC(=O)O)CCC(=O)O		mc155		MIC	36 µg/mL
CO[C@H]1/C=C/O[C@@]2(C)Oc3c(C)c(O)c4c(O)c(c5c(c4c3C2=O)N[C@]2(CC[C@@H]3CC[C@H](C2)N3C)N=5)=NC(=O)/C(C)=C\C=C\[C@H](C)[C@H](O)[C@@H](C)[C@@H](O)[C@@H](C)[C@H](OC(C)=O)[C@@H]1C			luminescence	MIC90	1190 µg/mL
CSc1ccccc1/C=N/NC(=O)c1cnc2cccc(C(F)(F)F)c2c1NC(CSc1ccccc1)CC(=O)N(C)C		ATCC 19420	resazurin	MIC	>100 µg/mL
Cc1[nH]c(-c2ccc(-c3ccc(Cl)c(OC(F)(F)F)c3)o2)nc1-c1ccc(Cl)cc1			broth dilution / turbidity	MIC100	20–50 µg/mL
COc1c(N2COCC2(C)C)c(F)cc2c(=O)c(C(=O)O)cn(C3CC3)c12		ATCC 14468	agar	MIC	16.61 µM
CO[C@H]1[C@@H](O)[C@H](n2ccc(=O)[nH]c2=O)O[C@@H]1[C@@H](O[C@H]1OC(C(=O)N[C@H]2CCC[C@@H](C)NC2=O)=C[C@H](O)[C@@H]1O)C(N)=O		mc2155	broth dilution	MIC	16 µg/mL
O=C(Nc1ccc(S(=O)(=O)Nc2nccs2)cc1)c1cc(-c2ccncc2)nc2ccccc12			turbidity	MIC80	100 µM
CCCCCCCCCCCCCCCOc1cc(-c2cccc(F)c2)nc2ccccc12		ATCC 607		MIC	125 µg/mL
Cc1ccc(-c2cc(C(=O)Nc3ccc(S(=O)(=O)Nc4nccs4)cc3)c3ccccc3n2)c(C)c1			turbidity	MIC80	>100 µM
C=C1C(=O)[C@@]23C(=O)O[C@H]4CCC(C)(C)[C@H]5[C@H](O)OC[C@@]45[C@@H]2CC[C@@H]1[C@H]3O		ATCC 19420	resazurin	MIC	>64 µg/mL
Cc1nc(-c2ccc(Cl)cc2)sc1-c1cn2cc(Br)ccc2n1		mc2155	broth dilution / absorbance	MIC	>50 µg/mL
CN(C)C(=O)CC(CSc1ccccc1)Nc1c(C(=O)N/N=C/c2ccc(F)cc2)cnc2cc(F)ccc12		ATCC 19420	resazurin	MIC	10 µg/mL

The last 8 rows once more:

| compound | changes | strain or isolate | read by | read-out | result |
|---|---|---|---|---|---|
| COc1c(N2COCC2(C)C)c(F)cc2c(=O)c(C(=O)O)cn(C3CC3)c12 |  | ATCC 14468 | agar | MIC | 16.61 µM |
| CO[C@H]1[C@@H](O)[C@H](n2ccc(=O)[nH]c2=O)O[C@@H]1[C@@H](O[C@H]1OC(C(=O)N[C@H]2CCC[C@@H](C)NC2=O)=C[C@H](O)[C@@H]1O)C(N)=O |  | mc2155 | broth dilution | MIC | 16 µg/mL |
| O=C(Nc1ccc(S(=O)(=O)Nc2nccs2)cc1)c1cc(-c2ccncc2)nc2ccccc12 |  |  | turbidity | MIC80 | 100 µM |
| CCCCCCCCCCCCCCCOc1cc(-c2cccc(F)c2)nc2ccccc12 |  | ATCC 607 |  | MIC | 125 µg/mL |
| Cc1ccc(-c2cc(C(=O)Nc3ccc(S(=O)(=O)Nc4nccs4)cc3)c3ccccc3n2)c(C)c1 |  |  | turbidity | MIC80 | >100 µM |
| C=C1C(=O)[C@@]23C(=O)O[C@H]4CCC(C)(C)[C@H]5[C@H](O)OC[C@@]45[C@@H]2CC[C@@H]1[C@H]3O |  | ATCC 19420 | resazurin | MIC | >64 µg/mL |
| Cc1nc(-c2ccc(Cl)cc2)sc1-c1cn2cc(Br)ccc2n1 |  | mc2155 | broth dilution / absorbance | MIC | >50 µg/mL |
| CN(C)C(=O)CC(CSc1ccccc1)Nc1c(C(=O)N/N=C/c2ccc(F)cc2)cnc2cc(F)ccc12 |  | ATCC 19420 | resazurin | MIC | 10 µg/mL |

MIC50, MIC90 and the like: level of inhibition, or share of isolates inhibited. a–b is a range or a potency band. Blank or dashed fields: not listed here. Conditions beyond the fields shown may differ between rows.